Pooled drug test results. Numbers come from NIAID ChemDB, via PubChem.

Common to all: tests in culture; organism: HIV-1; method: cytopathic effect / MTT; measure: EC50

a–b is a range or a potency band. Blank or dashed fields: not listed here. Lines come from different laboratories, so protocols vary. ECn: concentration that inhibits the pathogen or its effect by n%.

{"SMILES": "Cn1cc(C(=O)O)c(=O)c2cc(N)c(N3CCN(c4nc5ccccc5o4)CC3)cc21", "strain or isolate": "IIIB", "cells": "MT-4", "result": "0.015 µg/mL"}
{"SMILES": "Cc1nn(C(C)C)c(Sc2cc(Cl)cc(Cl)c2)c1Cc1ccncn1", "strain or isolate": "HXB2", "cells": "MT-4 + MT4", "result": "0.013 µM"}
{"SMILES": "CCc1c(Cc2ccccc2)nc(OC(C)C)[nH]c1=O", "strain or isolate": "IIIB", "cells": "MT-4", "result": "26 µM"}
{"SMILES": "CC(=O)c1cc(-c2ccccc2)n(-c2cccc(N=[N+]=[N-])c2)c1C", "cells": "MT-4", "result": ">6.3 µM"}
{"SMILES": "CC(C)CN(C[C@@H](O)[C@H](Cc1ccccc1)NC(=O)OC1COC2OCCC12)S(=O)(=O)c1ccc2nc(NC(=O)NCCN(C)C)[nH]c2c1", "strain or isolate": "LAI WT", "cells": "MT-4", "result": "2.512 µM"}
{"SMILES": "CCOC(=O)c1cc2ccccc2n1CC(O)CNc1ccccc1C(=O)OC", "strain or isolate": "IIIB", "cells": "MT-4", "result": ">39 µM"}
{"SMILES": "Cc1cc(C)cc(S(=O)(=O)c2c(C(=O)NCC(=O)NC(C)C(=O)NN)[nH]c3ccc(Cl)cc23)c1", "strain or isolate": "Nevirapine-resistant (RT Y181C)", "cells": "MT-4", "result": "0.16 µM"}
{"SMILES": "CCOC(=O)c1cn(CC(O)CNc2ccccc2C)cc1-c1ccccc1", "strain or isolate": "IIIB", "cells": "MT-4", "result": ">33 µM"}
{"SMILES": "CC(C)CN(C[C@@H](O)[C@H](Cc1ccccc1)NC(=O)O[C@H]1CO[C@H]2OCC[C@H]21)S(=O)(=O)c1ccc2ncn(CCO)c2c1", "strain or isolate": "LAI WT", "cells": "MT-4", "result": "0.794 µM"}
{"SMILES": "CC1(C)S[C@H](C(NC(=O)Cc2ccccc2)C(=O)NCc2ccccc2)N[C@H]1C(=O)NCCNC(=O)[C@@H]1N[C@@H](C(NC(=O)Cc2ccccc2)C(=O)NCc2ccc(CO)cc2)SC1(C)C", "strain or isolate": "IIIB", "cells": "MT-4", "result": "2 µM"}
{"SMILES": "O=C(O)c1cc(Cc2cc(C(c3ccc(O)c(C(=O)O)c3)c3ccc(O)c(C(=O)O)c3)cc(C(=O)O)c2O)ccc1O", "strain or isolate": "IIIB", "cells": "MT-4", "result": "2.8 µg/mL"}
{"SMILES": "CCOC(=O)c1cn(CC(O)CNc2ccccc2Cl)cc1-c1ccccc1", "strain or isolate": "IIIB", "cells": "MT-4", "result": ">47.3 µM"}
{"SMILES": "CC1(C)Cc2c(Br)c(Br)c(Br)c(OCCCN3CCCCC3)c2O1", "cells": "MT-4", "result": ">6 µM"}
{"SMILES": "O=c1cc(Cc2ccccc2)nc(OCCCCO)[nH]1", "strain or isolate": "IIIB", "cells": "MT-4", "result": ">200 µM"}
{"SMILES": "O=C(O)c1cc(C(O)(c2ccc(O)c(C(=O)O)c2)c2ccc(O)c(C(=O)O)c2)ccc1O", "strain or isolate": "IIIB", "cells": "MT-4", "result": ">40 µg/mL"}
{"SMILES": "CC(C)CN(C[C@@H](O)[C@H](Cc1ccccc1)NC(=O)O[C@H]1CO[C@H]2OCC[C@H]21)S(=O)(=O)c1ccc2nc(NCCN3CCCC3)n(CCc3ccccc3)c2c1", "strain or isolate": "LAI WT", "cells": "MT-4", "result": "0.398 µM"}
{"SMILES": "Nc1ccn([C@@H]2O[C@H](CO)C=C2F)c(=O)n1", "mutations": "RT-M184V", "result": "<1.8 µM"}
{"SMILES": "CCc1c(Cc2ccccc2)nc(OC)[nH]c1=O", "strain or isolate": "IIIB", "cells": "MT-4", "result": ">200 µM"}
{"SMILES": "CCC(C)[C@@H](C(=O)N[C@@H](Cc1ccccc1)[C@H](O)CN(CC(C)C)S(=O)(=O)c1ccc(/C=N/O)cc1)N1CCN(Cc2cccc(C(C)C)n2)C1=O", "cells": "MT-4", "result": "0.003 µM"}
{"SMILES": "CC(C)CN(C[C@@H](O)[C@H](Cc1ccccc1)NC(=O)OC(C)(C)C)S(=O)(=O)c1ccc2ncn(CCc3ccccc3)c2c1", "strain or isolate": "LAI WT", "cells": "MT-4", "result": "0.398 µM"}
{"SMILES": "N#Cc1ccc(N2C(=O)C=CC3Nc4ccccc4C32)cc1", "strain or isolate": "LAI", "cells": "MT-4", "result": "1–32 µM"}
{"SMILES": "CC1(C)S[C@H]([C@H](NC(=O)Cc2ccccc2)C(=O)NCc2ccccc2)N[C@H]1C(=O)NCCNC(=O)[C@@H]1N[C@@H]([C@H](NC(=O)Cc2ccccc2)C(=O)NCc2ccc(C(=O)O)cc2)SC1(C)C", "strain or isolate": "IIIB", "cells": "MT-4", "result": ">100 µM"}
{"SMILES": "NOCc1ccccc1F", "strain or isolate": "IIIB", "cells": "MT-4", "result": "8.15 µg/mL"}
{"SMILES": "O=c1cc(Cc2ccccc2)nc(OC2CCCC2)[nH]1", "strain or isolate": "IIIB", "cells": "MT-4", "result": "41 µM"}
{"SMILES": "CN1c2ccccc2C2C1C=CC(=O)N2c1ccc(-c2noc(C3CC3)n2)cc1", "strain or isolate": "LAI", "cells": "MT-4", "result": "1–32 µM"}
{"SMILES": "CCOC(=O)c1cc2c3cc(N)ccc3c3ccc(OC)cc3n2c1C", "cells": "MT-4", "result": ">200 µM"}
{"SMILES": "N#Cc1cc2[nH]c3ccccc3c2n(-c2ccc([N+](=O)[O-])cc2)c1=O", "strain or isolate": "A", "cells": "MT-4", "mutations": "RT-Y181C", "result": "2.51 µM"}
{"SMILES": "CC(C)=CCOc1cc(Nc2ccccn2)ccc1C", "strain or isolate": "IIIB", "cells": "MT-2", "result": ">35 µM"}
{"SMILES": "CCOC(=O)c1cc2c3cc(OC)ccc3c3c(N)cccc3n2c1C", "cells": "MT-4", "result": ">200 µM"}
{"SMILES": "NOCc1c(Cl)cccc1Cl", "strain or isolate": "IIIB", "cells": "MT-4", "result": "1.67 µg/mL"}
{"SMILES": "Cc1c(N)cccc1C(=O)N[C@@H](Cc1ccccc1)[C@H](O)CN(CC(C)C)S(=O)(=O)c1ccc2nc[nH]c2c1", "strain or isolate": "LAI WT", "cells": "MT-4", "result": "0.398 µM"}
{"SMILES": "CCOC(=O)c1cn(CC(O)CNc2ccccc2C(=O)OC)cc1-c1ccccc1", "strain or isolate": "IIIB", "cells": "MT-4", "result": ">37 µM"}
{"SMILES": "CC(=O)Nc1nc2ccc(S(=O)(=O)N(CC(C)C)C[C@@H](O)[C@H](Cc3ccccc3)NC(=O)O[C@H]3CCOC3)cc2[nH]1", "strain or isolate": "LAI WT", "cells": "MT-4", "result": "0.05 µM"}
{"SMILES": "NOCc1ccccc1Cl", "strain or isolate": "IIIB", "cells": "MT-4", "result": "13.8 µg/mL"}
{"SMILES": "COC1=C(C2=C(C3=C(O)C(=O)c4ccccc4C3=O)C(=O)c3ccccc3C2=O)C(=O)c2ccc3c(c2C1=O)C=CC(C)(C)O3", "strain or isolate": "IIIB", "cells": "CEM", "result": "8.8 µM"}
{"SMILES": "CC(C)=CCOc1cc(Nc2ccccn2)ccc1C#N", "strain or isolate": "IIIB", "cells": "MT-2", "result": ">0.29 µM"}
{"SMILES": "CC(C)CN(C[C@@H](O)[C@H](Cc1ccccc1)NC(=O)[C@H](C(C)C)N1CC(=O)N(Cc2ccccn2)C1=O)S(=O)(=O)c1ccc(/C=N/O)cc1", "conditions": "50% human serum", "cells": "MT-4", "result": "0.059 µM"}
{"SMILES": "CC(=O)c1ccc(N2CCN(c3cc4c(cc3N)c(=O)c(C(=O)O)cn4C)CC2)cc1", "strain or isolate": "IIIB", "cells": "MT-4", "result": ">0.157 µg/mL"}
{"SMILES": "Clc1ccc(Nc2nccs2)cc1OCC1CCCCC1", "strain or isolate": "IIIB", "cells": "MT-2", "result": ">15 µM"}
{"SMILES": "O=c1cc(Cc2ccc3ccccc3c2)nc(SC2CCCC2)[nH]1", "strain or isolate": "MC639(RT-V179D)", "cells": "MT-4", "mutations": "RT-V179D", "result": "20 µM"}
{"SMILES": "CC(C)(C)NC(=O)c1ccccc1NCC(O)Cn1cc(C(=O)NC(C)(C)C)c(-c2ccccc2)c1", "strain or isolate": "IIIB", "cells": "MT-4", "result": ">101 µM"}
{"SMILES": "CC1=C(COc2cc(Nc3nccs3)ccc2Cl)CCC1", "strain or isolate": "IIIB", "cells": "MT-2", "result": ">11 µM"}
{"SMILES": "CN1c2ccccc2C2C1C=CC(=O)N2c1ccc(-c2noc(Cc3ccccc3)n2)cc1", "strain or isolate": "LAI", "cells": "MT-4", "result": ">32 µM"}
{"SMILES": "COc1nc(Cc2ccccc2)cc(=O)[nH]1", "strain or isolate": "IIIB", "cells": "MT-4", "result": ">200 µM"}
{"SMILES": "NOCc1c(F)cccc1Cl", "strain or isolate": "IIIB", "cells": "MT-4", "result": "1.58 µg/mL"}
{"SMILES": "CCOC(=O)c1cn(CC(O)CNc2cccc(C)c2)cc1-c1ccccc1", "strain or isolate": "IIIB", "cells": "MT-4", "result": ">22.2 µM"}
{"SMILES": "CCC(C)[C@@H](C(=O)N[C@@H](Cc1ccccc1)[C@H](O)CN(CC1CCCC1)S(=O)(=O)c1ccc(/C=N/O)cc1)N1CCN(Cc2cccnc2C)C1=O", "cells": "MT-4", "result": "0.002 µM"}
{"SMILES": "CC(C)(C)NC(=O)c1ccccc1SCC(O)Cn1cc(C(=O)NC(C)(C)C)c(-c2ccccc2)c1", "strain or isolate": "IIIB", "cells": "MT-4", "result": ">101 µM"}
{"SMILES": "CC(C)CN(C[C@@H](O)[C@H](Cc1ccccc1)NC(=O)[C@H](C(C)C)N1CC(=O)N(Cc2ccccc2)C1=O)S(=O)(=O)c1ccc(/C=N/O)cc1", "strain or isolate": "A17 (LPV-resistant)", "cells": "MT-4", "mutations": "PR-L10F V32I M46I I47V Q68E I84V", "result": "0.016 µM"}
{"SMILES": "COC(=O)Nc1nc2ccc(S(=O)(=O)N(CC(C)C)C[C@@H](O)[C@H](Cc3ccccc3)NC(=O)COc3c(C)cccc3C)cc2[nH]1", "strain or isolate": "LAI WT", "cells": "MT-4", "result": "0.003 µM"}
{"SMILES": "CCOC(=O)c1cn(CC(O)CNc2ccc(C(=O)OC)cc2)cc1-c1ccccc1", "strain or isolate": "IIIB", "cells": "MT-4", "result": ">61.3 µM"}
{"SMILES": "O=S(=O)(c1cccc2cnccc12)N1CCNCC1", "strain or isolate": "IIIB", "cells": "CEM", "result": ">10.2 µg/mL"}
{"SMILES": "COc1ccc(-c2c3c(n([C@@H]4O[C@H](COC(C)=O)[C@@H](OC(C)=O)[C@H](OC(C)=O)[C@@H]4OC(C)=O)c(=S)c2C#N)-c2ccccc2C3)cc1", "cells": "MT-4", "result": "1.79 µM"}
{"SMILES": "O=C(O)c1cc(C(c2ccc(O)c(C(=O)O)c2)c2ccc(O)c(C(=O)O)c2)ccc1O", "strain or isolate": "IIIB", "cells": "MT-4", "result": "3.9 µg/mL"}
{"SMILES": "CCC(C)[C@@H](C(=O)N[C@@H](Cc1ccccc1)[C@H](O)CN(CC(C)C)S(=O)(=O)c1ccc(/C=N/O)cc1)N1CCN(Cc2cccnc2C)C1=O", "strain or isolate": "A17 (LPV-resistant)", "cells": "MT-4", "mutations": "PR-L10F V32I M46I I47V Q68E I84V", "result": "0.019 µM"}
{"SMILES": "CN(C)CCOc1c(Br)c(Br)c(Br)c2c1OC(C)(C)C2", "cells": "MT-4", "result": ">12.4 µM"}
{"SMILES": "CC(C)Oc1nc(Cc2ccccc2)cc(=O)[nH]1", "strain or isolate": "IIIB", "cells": "MT-4", "result": "26 µM"}
{"SMILES": "CC(C)CN(C[C@@H](O)[C@H](Cc1ccccc1)NC(=O)OCc1cncs1)S(=O)(=O)c1ccc2ncn(C)c2c1", "strain or isolate": "LAI WT", "cells": "MT-4", "result": "0.1 µM"}
{"SMILES": "CC(=O)c1cc(-c2cccc(N=[N+]=[N-])c2)n(-c2ccccc2)c1C", "cells": "MT-4", "result": ">18 µM"}
{"SMILES": "CN(C)CCNC(=O)C(NC(=O)Cc1ccccc1)[C@@H]1N[C@@H](C(=O)NCCNC(=O)[C@@H]2N[C@@H](C(NC(=O)Cc3ccccc3)C(=O)NCc3ccccc3)SC2(C)C)C(C)(C)S1", "strain or isolate": "IIIB", "cells": "MT-4", "result": "30 µM"}

A second listing of 6 rows from above:

SMILES,strain or isolate,conditions,cells,mutations,result
COC(=O)Nc1nc2ccc(S(=O)(=O)N(CC(C)C)C[C@@H](O)[C@H](Cc3ccccc3)NC(=O)COc3c(C)cccc3C)cc2[nH]1,LAI WT,-,MT-4,-,0.003 µM
CCOC(=O)c1cn(CC(O)CNc2ccccc2C(=O)OC)cc1-c1ccccc1,IIIB,-,MT-4,-,>37 µM
CC(C)CN(C[C@@H](O)[C@H](Cc1ccccc1)NC(=O)[C@H](C(C)C)N1CC(=O)N(Cc2ccccn2)C1=O)S(=O)(=O)c1ccc(/C=N/O)cc1,-,50% human serum,MT-4,-,0.059 µM
NOCc1c(F)cccc1Cl,IIIB,-,MT-4,-,1.58 µg/mL
CC(=O)c1cc(-c2ccccc2)n(-c2cccc(N=[N+]=[N-])c2)c1C,-,-,MT-4,-,>6.3 µM
CCOC(=O)c1cn(CC(O)CNc2ccccc2Cl)cc1-c1ccccc1,IIIB,-,MT-4,-,>47.3 µM